# Library screen at single concentrations

Mtb glucose medium: 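Whole-cell growth test on Mycobacterium tuberculosis, read after 3 days in glucose-containing 7H9 medium; the read-out is not stated. Compounds at 500 µM. Higher reads as more growth inhibition (inferred: compounds with an IC50 in retests scored well above the rest). Of about 18,000 compounds tested this way, about 1,400 (7.9%) reached 50% or more in at least one test.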
Mtb cholesterol medium: 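Phenotypic screen: M. tuberculosis growth, cholesterol and DPPC medium, 4 days; the read-out is not stated. Compounds at 500 µM. The record gives no direction; compounds that gave an IC50 in retests scored well above the rest, so higher reads as more growth inhibition. About 18,000 compounds were tested under these conditions; 5% (about 900) showed 50% or more at least once.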

Each number is a percent effect as filed. The controls that fix the scale are not given in the record; negative values are as filed. This is part of a subset picked to be rich in strong results. A dash means the value is not listed here; it may have been measured.

- CCC(=O)N1CCC(CCCN2CCOCC2)CC1 : Mtb glucose medium: -0.7909%
- COc1ccc(CN2CCCCC2C)cn1 (stereo not given) : Mtb cholesterol medium: -4.669%
- Cc1cncc(C(N)=O)c1 : Mtb cholesterol medium: -3.349%
- Cc1cc(NC2CC2)n2ncnc2n1 : Mtb glucose medium: 12.29%
- COc1cc(CNn2cnnc2)ccc1OCC(N)=O : Mtb glucose medium: 8.022%
- CSc1nnc(CN(C)CCO)s1 : Mtb glucose medium: 54.07%; Mtb cholesterol medium: 48.93%
- OC1CN(Cc2ccccc2)C1 : Mtb cholesterol medium: 12.2%
- O=C(Cn1cnnn1)N(CC(F)(F)F)C1CCC1 : Mtb glucose medium: 2.449%
- O=C(NCc1cn2ccccc2n1)C1CC1 : Mtb cholesterol medium: 1.84%
- CCc1ccc(O)c(C(=O)NCC2CCS(=O)(=O)C2)c1 (stereo not given) : Mtb glucose medium: 42.91%
- COc1ncc(C(=O)NCc2ccc(F)cc2)cn1 : Mtb glucose medium: 26.94%
- CCc1nc(CN[C@H](CO)C(C)C)no1 : Mtb glucose medium: 6.712%
- COc1ccccc1NCC(=O)NCc1cnn(C)c1 : Mtb cholesterol medium: 0.5117%
- Cc1ccc(-n2nnc(C(N)=O)c2C)cc1 : Mtb glucose medium: -5.351%
- CSCC(=O)N1CCCCCC1 : Mtb cholesterol medium: -6.266%
- Cc1oc2ncn(C)c(=O)c2c1C(=O)N(C)C : Mtb glucose medium: -0.453%
- COc1ccc(F)c(F)c1CN1CCOC(CCO)C1 (stereo not given) : Mtb cholesterol medium: 2.81%
- CCC1=NOC(CN2CCN(c3nc[nH]n3)CC2)C1 (stereo not given) : Mtb glucose medium: 3.713%
- Cc1oc(NC(=O)CSc2cnn[nH]2)c(C#N)c1C : Mtb glucose medium: -14.1%
- Cc1nnc(SCC(=O)NCCOc2nonc2C)s1 : Mtb glucose medium: 17.99%
- O=C(COc1ccc(F)cc1)Nc1ccon1 : Mtb glucose medium: 65.69%; Mtb cholesterol medium: 96.62%
- CCS(=O)(=O)N(C)c1ccc(F)cc1OC : Mtb cholesterol medium: 18.06%
- CCCc1nc(C(=O)NCCc2cccnc2)cs1 : Mtb glucose medium: 74.85%; Mtb cholesterol medium: 77.6%
- O=C(c1cc(C2CC2)on1)N1CCC2(CCNCC2)C1 : Mtb glucose medium: 23.53%
- Cc1nc(NC(=O)NCCSCCCO)sc1C : Mtb glucose medium: 28.6%
- Cc1noc(C)c1CC(=O)N(C)C(C)c1ccncc1 (stereo not given) : Mtb cholesterol medium: -7.97%
- CC1(C)OC(=O)N(CCC#N)C1(C)O (stereo not given) : Mtb glucose medium: -0.7391%
- COCCCNC(=O)c1cc(S(C)(=O)=O)ccc1C : Mtb glucose medium: 8.969%
- CCN(CC)C(=O)c1cc(O)nc2c(C)cccc12 : Mtb glucose medium: 0.8825%
- Cn1cc(Br)cc1C(=O)NCCCNc1ncccn1 : Mtb glucose medium: 61.13%
- O=C(CSc1cnn[nH]1)Nc1ccncc1 : Mtb glucose medium: 30.91%; Mtb cholesterol medium: 7.139%
- COCC(C)C(=O)Nc1ccc2c(c1)CCCN2 (stereo not given) : Mtb glucose medium: 9.504%; Mtb cholesterol medium: -20.25%
- COc1ccc(S(=O)(=O)N2CC(N)C2)cc1 : Mtb glucose medium: 3.492%
- COc1ccccc1CCNC1CCN(C(C)=O)CC1 : Mtb cholesterol medium: 5.36%
- CC(Sc1nc2ccccc2o1)C(=O)N1CCOCC1 (stereo not given) : Mtb glucose medium: 76.74%; Mtb cholesterol medium: 62.57%
- Cc1occc1C(=O)NCC(F)(F)F : Mtb cholesterol medium: -0.4743%
- CN1CCN(C(=O)C2CCCNC2)CC1 (stereo not given) : Mtb glucose medium: 2.285%
- Cc1cc(-n2cccn2)ccc1NC(=O)CN(C)C : Mtb glucose medium: 32.21%
- COC(=O)c1sc(N2CCCCC2)nc1N : Mtb glucose medium: -11.25%
- CCn1ncnc1C(C)NC(=O)c1cccc(O)c1C (stereo not given) : Mtb glucose medium: 8.597%
- CS(=O)(=O)CCN1CCC(C(N)=O)CC1 : Mtb glucose medium: -18.98%
- CCCS(=O)(=O)NC1CCN(c2ccncc2Cl)CC1 : Mtb glucose medium: 48.98%
- CC(C)(C)c1noc(CCC(=O)N2CCSCC2)n1 : Mtb glucose medium: 52.69%
- O=C(OCC1CC1)C1=CN2CCS(=O)(=O)N=C2C=C1 : Mtb glucose medium: 11%

The last 6 entries again:

compound	Mtb glucose medium	Mtb cholesterol medium
COC(=O)c1sc(N2CCCCC2)nc1N	-11.25	-
CCn1ncnc1C(C)NC(=O)c1cccc(O)c1C (stereo not given)	8.597	-
CS(=O)(=O)CCN1CCC(C(N)=O)CC1	-18.98	-
CCCS(=O)(=O)NC1CCN(c2ccncc2Cl)CC1	48.98	-
CC(C)(C)c1noc(CCC(=O)N2CCSCC2)n1	52.69	-
O=C(OCC1CC1)C1=CN2CCS(=O)(=O)N=C2C=C1	11	-

Data taken from ChEMBL document CHEMBL3988442, “University of Dundee, Small-Polar-MMV Screening Library” (2021).